Results of unrelated studies side by side (data: NIAID ChemDB).

All rows: cytotoxicity tests; cells: C8166; measure: CC50

Rows are shuffled and stem from different studies. CCn: concentration that lowers growth or viability of the cells by n%.

structure	result
Cc1ccc(C(O)c2cc(Cl)ccc2OCC(=O)Nc2ccc(S(N)(=O)=O)cc2C)c(C)c1	>4.1 µM
NC(=NCCCCCCN=C(N)/N=C(\N)Nc1ccc(Cl)cc1)/N=C(\N)Nc1ccc(Cl)cc1	>10 µg/mL
Cc1cn([C@H]2C[C@H](N=[N+]=[N-])[C@@H](COP(=O)(Oc3ccc(C#N)cc3)Oc3ccc(C#N)cc3)O2)c(=O)[nH]c1=O	500 µM
CCCC(=O)Oc1ccc(COP(=O)(OC[C@H]2CC[C@@H](n3cnc4c(=O)[nH]cnc43)O2)OC[C@H]2O[C@@H](n3cc(C)c(=O)[nH]c3=O)C[C@@H]2N=[N+]=[N-])cc1	90 µM
Cc1cn([C@H]2C[C@H](N=[N+]=[N-])[C@@H](COP(=O)(Oc3ccc([N+](=O)[O-])cc3)Oc3ccc([N+](=O)[O-])cc3)O2)c(=O)[nH]c1=O	40 µM
CC(C)(C)CC(C)(C)c1ccc(OCCOCCOCCOCCOCCOCCOCCOCCOCCOCCO)cc1	>10 µg/mL
O=c1c(O[C@@H]2O[C@H](CO)[C@@H](O)[C@H](O)[C@H]2O)c(-c2ccc(O)cc2)oc2cc(O)cc(O)c12	>200 µg/mL
N#Cc1ccc2oc3ccccc3c2c1	>200 µg/mL
O=c1c(O)c(-c2ccc(O)cc2)oc2cc(OC3OC(CO)C(O)C(O)C3O)cc(O)c12	>250 µg/mL
Nc1nc(Cl)nc2c1ncn2[C@H]1CC[C@@H](CO)O1	360 µM
Cc1cn([C@@H]2C[C@@H](N=[N+]=[N-])[C@H](COP(=O)(O)OC[C@H]3O[C@@H](n4cc(C)c(=O)[nH]c4=O)C[C@@H]3N=[N+]=[N-])O2)c(=O)[nH]c1=O	1000 µM
Cc1nc(CCCCCCC(=O)c2ccccc2)n2nc(-n3cccc3)ccc12	>0.005 µM
C[C@@H]1O[C@@H](OC[C@H]2O[C@@H](Oc3c(-c4ccc(O)c(O)c4)oc4cc(O)cc(O)c4c3=O)[C@H](O)[C@@H](O)[C@@H]2O)[C@H](O)[C@H](O)[C@H]1O	2880 µM
CC1(C)C(=O)CCC2[C@]34CC[C@]5(C)C(=O)CC[C@@]5(C)C3C=C[C@@]21OC4=O	>200 µg/mL
COc1ccc2oc3ccc([N+](=O)[O-])cc3c2c1	60.5 µg/mL
C[C@@H]1O[C@@H](Oc2c(-c3cc(O)c(O)c(O)c3)oc3cc(O)cc(O)c3c2=O)[C@H](O)[C@H](O)[C@H]1O	>200 µg/mL
Cc1cn([C@H]2C[C@H](OS(C)(=O)=O)[C@@H](COP(=O)(OCC(Cl)(Cl)Cl)OCC(Cl)(Cl)Cl)O2)c(=O)[nH]c1=O	>100 µM
C[C@H](C/C=C/C(C)(C)O)[C@H]1CC[C@@]2(C)C3C(=O)C=C4C(CCC(=O)C4(C)C)[C@]3(C=O)CC[C@]12C	49.3 µg/mL
COC(=O)[C@H](C)NP(=O)(OC[C@H]1O[C@@H](n2cc(C)c(=O)[nH]c2=O)C[C@@H]1N=[N+]=[N-])OCC(Cl)(Cl)Cl	200 µM
CC1=CCCC2C1(C)CCC(C)[C@@]2(C)CC1=CC(=O)C(NC(Cc2ccccc2)C(=O)O)=CC1=O	8 µM
O=c1c2cccn2c2ccc(Cl)cc2n1CCNC(=S)Nc1ccc(Br)cn1	7 µM
CC(=O)O[C@H]1C[C@H](n2ccc(=O)[nH]c2=O)O[C@@H]1COP(=O)(OCC(Cl)(Cl)Cl)OCC(Cl)(Cl)Cl	>100 µM
COc1cc(C(c2ccc3c(c2)OCO3)C(C(=O)O)C(CO)CO)ccc1O	82.1 µg/mL
CC1=CCCC2C1(C)CCC(C)[C@@]2(C)Cc1cc(=O)c2nc3[nH]cnc4ncn(c2c1=O)c43	28.2 µM
C[C@@H]1O[C@@H](Oc2c(-c3ccc(O)c(O)c3)oc3cc(O)cc(O)c3c2=O)[C@H](O)[C@H](O)[C@H]1O	>100 µg/mL
C[C@H](C(=O)O)[C@H]1CC[C@@]2(C)C3C(=O)[C@H]4O[C@]45C(CCC(=O)C5(C)C)[C@]3(C=O)CC[C@]12C	145 µg/mL
Cc1cn([C@H]2C[C@H](N=[N+]=[N-])[C@@H](CO)O2)c(=O)[nH]c1=O	>100 µM
O=C(Oc1cc(O)c2c(c1)O[C@H](c1ccc(O)c(O)c1)[C@@H](O)C2)c1cc(O)c(O)c(O)c1	>100 µg/mL
CC1=CCCC2C1(C)CCC(C)[C@@]2(C)CC1=CC(=O)C(N[C@@H]2C(O)O[C@@H](CO)C(O)C2O)=CC1=O	7.1 µM
Cc1nc(CCCCCCC(=O)c2ccccc2)n2nc(Cl)ccc12	>0.08 µM
CC1=CCCC2C1(C)CCC(C)[C@@]2(C)CC1=CC(=O)C(NC(CS(=O)(=O)O)C(=O)O)=CC1=O	22.3 µM
CC1(C)S[C@H]([C@H](NC(=O)Cc2ccccc2)C(=O)N2CCCCC2)N[C@H]1C(=O)NCCNC(=O)[C@@H]1N[C@@H]([C@H](NC(=O)Cc2ccccc2)C(=O)N2CCCCC2)SC1(C)C	>100 µM
CN[C@@H]1[C@H](O[C@@H]2OC[C@@H](O)[C@H](O)[C@H]2O)[C@@H](O)[C@H](O[C@H]2c3cc(C)c(C(=O)N[C@H](C)C(=O)O)c(O)c3-c3c(cc4c(c3O)C(=O)c3cc(OC)cc(O)c3C4=O)[C@@H]2O)O[C@@H]1C	>50 µg/mL
CCCCCCCCCc1ccc(OCCOCCOCCOCCOCCOCCOCCOCCOCCO)cc1	>10 µg/mL
CC1(C)S[C@H]([C@H](NC(=O)Cc2ccccc2)C(=O)NCc2ccccc2)N[C@H]1C(=O)NCCNC(=O)[C@@H]1N[C@@H]([C@H](NC(=O)Cc2ccccc2)C(=O)NCc2ccccc2)SC1(C)C	>100 µM
C=C(C)C1Oc2ccc(C(C)=O)cc2C1O	50 µg/mL
Cc1cccc(C)c1OCC(=O)N[C@@H](Cc1ccccc1)[C@H](O)CN1C[C@H]2CCCC[C@H]2C[C@H]1C(=O)NC(C)(C)C	>10 µM
CC(C)(C)NC(=O)[C@@H]1C[C@@H]2CCCC[C@@H]2CN1C[C@@H](O)[C@H](Cc1ccccc1)NC(=O)[C@H](CC(N)=O)NC(=O)c1ccc2ccccc2n1	>0.001 µg/mL
O=c1c2cccn2c2cccc(F)c2n1CCNC(=S)Nc1ccc(Br)cn1	200 µM
CCOP(=O)(N[C@@H](C)C(=O)OC)OC[C@H]1O[C@@H](n2cc(C)c(=O)[nH]c2=O)C[C@@H]1N=[N+]=[N-]	300 µM
CCCC(=O)Oc1ccc(COP(=O)(OC[C@@H]2O[C@H](n3cc(C)c(=O)[nH]c3=O)C[C@H]2N=[N+]=[N-])OC[C@H]2O[C@@H](n3cc(C)c(=O)[nH]c3=O)C[C@@H]2N=[N+]=[N-])cc1	75 µM
CCNC(=O)[C@@H](NC(=O)Cc1ccccc1)[C@@H]1N[C@@H](C(=O)NCCNC(=O)[C@@H]2N[C@@H]([C@H](NC(=O)Cc3ccccc3)C(=O)NCC)SC2(C)C)C(C)(C)S1	>128 µM
OCC1OC(OCCc2ccccc2)C(O)C(O)C1O	>250 µg/mL
C=C(C)C1Cc2cc(C(C)=O)c(O)cc2O1	40 µg/mL
O=C(O[C@@H]1Cc2c(O)cc(O)cc2O[C@@H]1c1ccc(O)c(O)c1)c1cc(O)c(O)c(O)c1	>100 µg/mL
Cc1nc(CCCCCOCc2ccccc2)n2nc(Cl)ccc12	>0.58 µM
Fc1cccc2c1nc(OCCNC(=S)Nc1ccc(Br)cn1)c1cccn12	125 µM
C[C@H](CC(=O)CC(C)(C)O)[C@H]1CC[C@@]2(C)C3C(=O)C=C4C(CCC(=O)C4(C)C)[C@]3(C=O)CC[C@]12C	62.8 µg/mL
Nc1ncnc2c1ncn2[C@H]1C=C[C@@H](CO)O1	97 µM
Cc1c(O)cccc1C(=O)N[C@@H](Cc1ccccc1)[C@H](O)CN1CC[C@@H](OCc2ccncc2)C[C@H]1C(=O)NC(C)(C)C	>1 µM
C[C@H](CO)[C@H]1CC[C@@]2(C)C3C=C[C@@]45OC(=O)[C@]3(CC[C@]12C)C4CCC(=O)C5(C)C	>200 µg/mL
CC1=CCC[C@H]2[C@](C)(CC3=CC(=O)C=CC3=O)[C@@H](C)CC[C@]12C	12.9 µM
Cc1nc(CCCCCOC(=O)c2ccccc2)n2nc(Cl)ccc12	>1.1 µM
CSc1ccc(OP(=O)(OC[C@H]2O[C@@H](n3cc(C)c(=O)[nH]c3=O)C[C@@H]2N=[N+]=[N-])Oc2ccc(SC)cc2)cc1	500 µM
Cc1cn([C@H]2C[C@H](N=[N+]=[N-])[C@@H](COP(=O)(OCC(Cl)(Cl)Cl)Oc3ccccc3)O2)c(=O)[nH]c1=O	70 µM
Nc1ncnc2c1ncn2CCOCP(=O)(O)O	65 µM
Cc1cn([C@@H]2O[C@H](CO[Si](C)(C)C(C)(C)C)C3(OS(=O)(=O)C=C3N)[C@H]2O[Si](C)(C)C(C)(C)C)c(=O)n(C)c1=O	>10 µM
O=C(CCCCCCc1ncc2ccc(Cl)nn12)c1ccccc1	>0.34 µM
CC(=O)c1ccc(O)c(CC(O)C(C)(C)O)c1	8 µg/mL
Cc1cc(S[C@@H]2CCN(C[C@@H](O)[C@H](Cc3ccccc3)NC(=O)COc3c(C)cccc3C)[C@H](C(=O)NC(C)(C)C)C2)nc(C)n1	>1 µM
O=c1[nH]cnc2c1ncn2[C@H]1CC[C@@H](CO)O1	>100 µM
CC(C)[C@H](NC(=O)c1ccc2ccccc2n1)C(=O)N[C@@H](Cc1ccccc1)[C@H](O)CN1CC[C@@H](OCc2ccncc2)C[C@H]1C(=O)NC(C)(C)C	32 µM
O=c1c2cccn2c2ccccc2n1CCNC(=S)Nc1ccc(Cl)cn1	11 µM
CN(C)c1ccc(CNC(=O)[C@@H](NC(=O)Cc2ccccc2)[C@@H]2N[C@@H](C(=O)NCCNC(=O)[C@@H]3N[C@@H]([C@H](NC(=O)Cc4ccccc4)C(=O)NCc4ccc(N(C)C)cc4)SC3(C)C)C(C)(C)S2)cc1	>100 µM
CC(C)C[C@H](NC(=O)[C@H](CC(=O)O)NC(=O)[C@@H](N)Cc1ccc(O)cc1)C(=O)N[C@@H](CC(=O)O)C(=O)N[C@@H](Cc1ccc(O)cc1)C(=O)N[C@@H](Cc1ccc(O)cc1)C(=O)O	>1000 µg/mL
CC1=CCC[C@H]2[C@](C)(Cc3cc(O)ccc3O)[C@@H](C)CC[C@]12C	9.2 µM
N#Cc1cccc2c1oc1ccccc12	>200 µg/mL
Nc1ncnc2c1ncn2[C@H]1CC[C@@H](CO)O1	>1000 µM
O=C(O)C1(O)C[C@@H](O)C(O)[C@H](O)C1	>200 µg/mL
O=c1c2cccn2c2ccccc2n1CCNC(=S)Nc1ccc(Br)cn1	17 µM
CC(=O)O[C@H]1C[C@H](n2cc(C)c(=O)[nH]c2=O)O[C@@H]1COP(=O)(OCC(Cl)(Cl)Cl)OCC(Cl)(Cl)Cl	>100 µM

The last 8 rows once more:

structure,result
CN(C)c1ccc(CNC(=O)[C@@H](NC(=O)Cc2ccccc2)[C@@H]2N[C@@H](C(=O)NCCNC(=O)[C@@H]3N[C@@H]([C@H](NC(=O)Cc4ccccc4)C(=O)NCc4ccc(N(C)C)cc4)SC3(C)C)C(C)(C)S2)cc1,>100 µM
CC(C)C[C@H](NC(=O)[C@H](CC(=O)O)NC(=O)[C@@H](N)Cc1ccc(O)cc1)C(=O)N[C@@H](CC(=O)O)C(=O)N[C@@H](Cc1ccc(O)cc1)C(=O)N[C@@H](Cc1ccc(O)cc1)C(=O)O,>1000 µg/mL
CC1=CCC[C@H]2[C@](C)(Cc3cc(O)ccc3O)[C@@H](C)CC[C@]12C,9.2 µM
N#Cc1cccc2c1oc1ccccc12,>200 µg/mL
Nc1ncnc2c1ncn2[C@H]1CC[C@@H](CO)O1,>1000 µM
O=C(O)C1(O)C[C@@H](O)C(O)[C@H](O)C1,>200 µg/mL
O=c1c2cccn2c2ccccc2n1CCNC(=S)Nc1ccc(Br)cn1,17 µM
CC(=O)O[C@H]1C[C@H](n2cc(C)c(=O)[nH]c2=O)O[C@@H]1COP(=O)(OCC(Cl)(Cl)Cl)OCC(Cl)(Cl)Cl,>100 µM